Measured values reported in article PMC9794196, “Lassa virus glycoprotein nanoparticles elicit neutralizing antibody responses and protection” (Cell Host & Microbe, 2022).

Biological target: GPC-I53-50A (GPCysR4, Josiah strain, genetically fused to I53-50A.1NT1) (Lassa virus, Josiah (lineage IV), R207C | E329P | L258R | L259R | G360C)

B1: LAVA01 Fab (Fab, V domains shown)
VH: NSQLEESGGGLVQTEGSLTLTCTASGFSFSNNDYICWVRQAPGKGLEWIGCIYSDYGFSFFATWAKDRFSGSKTSSTTVTLQGTGLTAADTATYFCVKTYVSRFGYYIRWDYFDLWGPGTLVIVSS
VL: DQVMTQTPSPVSAAVGGTVSISCQSSKSVHNENFLSWYQQKPGQRPKLLIYRASTLASGVPSRFKGSGSGTQFTLTISDVQCDDAATYYCAGGDIQSSDDVFGGGTEVVVQ
stoichiometry N: 3
